{"source": "patent US11773379B2", "about": "“Enzymes and reagents for measurement of short chain fatty acids” (SYSMEX CORPORATION, priority 2018, dated 2023)", "system": "BKII", "test": "Linearity test of butyric acid measurement using butyrate kinase", "type": "biochemical, Acetoanaerobium sticklandii"}
{"smiles": "CCCC(=O)O", "note": "[Butyric acid]", "values": [{"measurement": "Abs 340 nm", "setting": "butyric acid 0.156 mM", "result": 0.0184}, {"measurement": "Abs 340 nm", "setting": "butyric acid 0.313 mM", "result": 0.0370}, {"measurement": "Abs 340 nm", "setting": "butyric acid 0.625 mM", "result": 0.0740}, {"measurement": "Abs 340 nm", "setting": "butyric acid 1.250 mM", "result": 0.1481}, {"measurement": "Abs 340 nm", "setting": "butyric acid 2.500 mM", "result": 0.2938}, {"measurement": "Abs 340 nm", "setting": "butyric acid 5.000 mM", "result": 0.5834}, {"measurement": "Abs 340 nm", "setting": "butyric acid 10.000 mM", "result": 1.1491}]}
